The source of these data is US20260275319A1, “ARCHAEAL PEPTIDE RECOMBINASE – A NOVEL PEPTIDE LIGATING ENZYME” (MAX-PLANCK-GESELLSCHAFT ZUR FÖRDERUNG DER WISSENSCHAFTEN …, priority 2019, published 2026).

The test system of this data set is M. mazei Adriase. Kind of data set: Pulldown of M. mazei whole cell extract with bead-coupled tagged M. mazei Adriase, LC-MS/MS of eluate. The conditions noted are these: for Intensity (Experiment 2.3): bait Adriase coupled via C-terminal HA-tag; for Intensity (Experiment 2.2): bait Adriase coupled via C-terminal Myc-tag; for Intensity (Experiment 2.1): bait Adriase coupled via C-terminal Strep-tag.

B1: MtrF: subunit of the M. mazei MtrA-MtrH complex detected in pulldown (protein, UniProt P80654 2-72, looked up)
Tetrahydromethanopterin …: AEEHEKGVPMVLAPQMGAIDATVESIRYRAQLIARNQKLDSGVAATGIIGFAAGFLFSLLMVIVLPVAVGL
For B1, the “Intensity (Experiment 2.3)” value amounted to 4.3E+05 arbitrary units.

B2: M. mazei Adriase: Methanosarcina mazei Adriase (MM_2909), archaeal peptide recombinase, C-terminal His6-tag; Strep-, Myc-, HA-tagged versions used as pulldown bait (protein)
chain: TLVIAFIGKNGAVMAGDMREITFEGEKPDREKLEKELYSGSIVTDEEMQKKAEEFGVKITVADCKEKVSERNGVLVGEVSSAEGGVVKKRRLYASAGNFAIAELINTEMTLTSQGKGSNFIAFGNEFTKQVANKCFKDNWTKKSNLQDAVKILILCMETVARKTASVSKQFMIVQTASNADVLKVVEKDRNCGSHHHHHH
modifications: C-terminal His6-tag; M. mazei Adriase with C-terminal His-tag
notes: Methanosarcina mazei Adriase (MM_2909), archaeal peptide recombinase, C-terminal His6-tag; Strep-, Myc-, HA-tagged versions used as pulldown bait
In the case of B2, the “Intensity (Experiment 2.3)” value is recorded as 2.1E+10 arbitrary units, the “Intensity (Experiment 2.2)” value was 6.8E+09 arbitrary units and the “Intensity (Experiment 2.1)” value amounted to 6.4E+09 arbitrary units.

B3: MtrB: subunit of the M. mazei MtrA-MtrH complex detected in pulldown (protein, UniProt P80655 2-108, looked up)
Tetrahydromethanopterin …: SIVRIAPEINLVMDTESGTVTQERKDSIQYSMEPVFERVDKLDAIADDLVNSLSPSKPLLNTWPGRENTSYIAGIYSNSFYGIIVGLAFSGLLALIIYITRLMGGVV
Take B3: the “Intensity (Experiment 2.3)” value is listed as 6.2E+06 arbitrary units, the “Intensity (Experiment 2.2)” value amounted to 3.2E+06 arbitrary units and the “Intensity (Experiment 2.1)” value was 1.4E+06 arbitrary units.
